Anti-infective test results gathered from many reports (values: NIAID ChemDB through PubChem).

Shared fields: whole-cell or culture tests; species: Hepatitis B virus; method: PCR; endpoint: EC50

An empty or dashed field is not shown.

| compound | changes | cells | result |
|---|---|---|---|
| COc1ccc(-n2c(C(=O)NCc3ccccc3)c3n(c2=O)CCN(C(=O)c2ccc(Cl)c(Cl)c2)C3)c(Cl)c1 |  | HepG2.117 | 0.5–5 µM |
| CNS(=O)(=O)N1CC[C@@H](NS(=O)(=O)c2c(F)c(C(=O)Nc3ccc(F)c(F)c3)n3c2CCCC3)C1 |  | HepAD38 cells | <0.1 µM |
| Cc1cc(NC(=O)c2c3c(cn2C)S(=O)(=O)NC2CCN(C(=O)C(=O)N[C@H](C)C(F)(F)F)CC2CO3)ccc1F |  | HepAD38 | <0.5 µM |
| CCOC(=O)C1=C(CN2CC(F)(F)[C@@H]3[C@H]2CON3C[C@@H](F)C(C)(C)C(=O)O)NC(c2nccs2)=N[C@@]1(C)c1cccc(F)c1C |  | HepG2.2.15 | 0.0095 µM |
| Cc1cc(NC(=O)c2c3c(cn2C)S(=O)(=O)N[C@H]2CN(C(=O)C(=O)NC4CC4)C[C@H]2CO3)ccc1F |  | HepAD38 | <0.5 µM |
| CCNC(=O)C(=O)N1CCC(NS(=O)(=O)c2cn(C)c(C(=O)Nc3cccc(Cl)c3)c2F)CC1 |  | HepAD38 cells | <0.1 µM |
| Cn1nc2cc(N(CC#N)S(=O)(=O)NC3CC3)ccc2c1C(=O)Nc1ccc(F)c(Cl)c1 |  | HepAD38 | >1000 µM |
| CCNC(=O)C(=O)N1CC[C@@H](NS(=O)(=O)c2cn(C)c(C(=O)Nc3ccc(F)c(F)c3)c2F)C(F)(F)C1 |  | HepAD38 cells | <0.1 µM |
| CCOC(=O)C1=C(CN2CC(F)(F)[C@H]3[C@@H]2CCN3C[C@@H](O)C(C)(C)C(=O)O)NC(c2nccs2)=N[C@H]1c1cccc(F)c1C |  | HepG2.2.15 | 0.001 µM |
| Cn1nc2cc(NS(=O)(=O)c3cnn(-c4cccc(N)n4)c3)ccc2c1C(=O)Nc1ccc(F)c(Cl)c1 |  | HepAD38 | <100 µM |
| Cc1cc(NC(=O)c2c3c(cn2C)S(=O)(=O)N[C@H]2CN(C(=O)C(=O)NC4(C(F)(F)F)CC4)C[C@H]2CO3)ccc1F |  | HepAD38 | <0.5 µM |
| CC(C)(Oc1ccc(CNC(=O)c2c3n(c(=O)n2-c2ccc(OC4CC4)cc2)CCN(C(=O)c2ccc(Br)c(Cl)c2)C3)c(F)c1)C(N)=O |  | HepG2.117 | <0.1 µM |
| C[C@@H](NC(=O)C(=O)N1C[C@H]2COc3c(cn(C)c3C(=O)Nc3ccc(F)c(F)c3)S(=O)(=O)N[C@H]2C1)C(F)(F)F |  | HepAD38 | <0.5 µM |
| CCOC(=O)C1=C(CN2CC(F)(F)[C@H]3[C@@H]2CCN3C[C@](C)(F)C(=O)O)NC(c2nc(C)cs2)=N[C@H]1c1cccc(F)c1C |  | HepG2.2.15 | 0.0395 µM |
| Cn1nc2cc(NS(=O)(=O)CC(=O)NC3CC3)ccc2c1C(=O)Nc1ccc(F)c(Cl)c1 |  | HepAD38 | >1000 µM |
| O=C(NCc1ccccc1)c1c2n(c(=O)n1-c1ccc(OCC(F)F)cc1)CCN(C(=O)c1ccc(Br)c(Cl)c1)C2 |  | HepG2.117 | 0.5–5 µM |
| Cn1nc2cc(NS(=O)(=O)c3cnn(-c4ncccc4C4CC4)c3)ccc2c1C(=O)Nc1ccc(F)c(Cl)c1 |  | HepAD38 | 100–1000 µM |
| CNC(=O)C(=O)N1CC[C@@H](NS(=O)(=O)c2cn(C)c(C(=O)Nc3ccc(F)c(C#N)c3)c2Cl)C1 |  | HepAD38 cells | 0.1–0.3 µM |
| Cc1cc(NC(=O)c2c3c(cn2C)S(=O)(=O)N[C@H]2CN(C(=O)C(=O)N[C@H](C)C(F)(F)F)C[C@H]2CO3)ccc1F | T33N | HepG2 | 0.04688 µM |
| Cn1nc2cc(S(=O)(=O)NCc3ccccc3)ccc2c1C(=O)Nc1ccc(F)c(Cl)c1 |  | HepAD38 | 100–1000 µM |
| COc1ccc(-n2c(-c3nnc(Cc4ccccc4)o3)c3n(c2=O)CCN(C(=O)c2ccc(Cl)c(Cl)c2)C3)cc1 |  | HepG2.117 | >5 µM |
| Cn1nc2cc(NS(=O)(=O)c3cnn(CCS(C)(=O)=O)c3)ccc2c1C(=O)Nc1ccc(F)c(Cl)c1 |  | HepAD38 | 100–1000 µM |
| COC(=O)C1=C(CN2CC(F)(F)[C@H]3[C@@H]2CCN3CC[C@@](C)(O)C(=O)O)NC(c2nccs2)=N[C@H]1c1ccc(F)c(F)c1F |  | HepG2.2.15 | 0.189 µM |
| COc1ccc(-n2c(C(=O)NCc3ccc4ncccc4c3)c3n(c2=O)CCN(C(=O)c2ccc(Cl)c(Cl)c2)C3)cc1 |  | HepG2.117 | 0.5–5 µM |
| Cn1cc2c(c1C(=O)Nc1cc(F)c(F)c(F)c1)OCC1CN(C(=O)C(N)=O)CC1NS2(=O)=O |  | HepAD38 | <0.5 µM |
| COC(=O)C1=C(CN2CC(F)(F)[C@H]3[C@@H]2CCN3CC[C@](C)(O)C(=O)O)NC(c2nccs2)=N[C@H]1c1ccc(F)c(F)c1C |  | HepG2.2.15 | 0.034 µM |
| COc1ccc(-n2c(C(=O)N[C@H](c3ccccc3)C3CC3)c3n(c2=O)CCN(C(=O)c2ccc(Br)c(Cl)c2)C3)cc1 |  | HepG2.117 | 0.1–0.5 µM |
| COC(=O)C1=C(CN2CC(F)(F)[C@H]3[C@@H]2CCN3C[C@@H](F)C(C)(C)C(=O)O)NC(c2nc(C)cs2)=N[C@H]1c1cccc(F)c1C |  | HepG2.2.15 | 0.005 µM |
| Cn1nc2cc(NS(=O)(=O)NCC3CN(Cc4ccccc4)C3)ccc2c1C(=O)Nc1ccc(F)c(Cl)c1 |  | HepAD38 | >1000 µM |
| CCOC(=O)C1=C(CN2CC(F)(F)[C@H]3[C@@H]2CON3C[C@@H](O)C(C)(C)C(=O)O)NC(c2nc(C)cs2)=N[C@H]1c1cccc(F)c1C |  | HepG2.2.15 | 0.003 µM |
| COc1ccc([C@H](C)NC(=O)c2c3n(c(=O)n2-c2ccc(-n4cccn4)cc2)CCN(C(=O)c2ccc(Br)c(Cl)c2)C3)cc1 |  | HepG2.117 | 0.1–0.5 µM |
| COC(=O)C1=C(CN2CC(F)(F)[C@H]3[C@@H]2CCN3CC[C@@](C)(O)C(=O)O)NC(c2nccs2)=N[C@H]1c1ccc(F)c(F)c1C |  | HepG2.2.15 | 0.046 µM |
| Cn1nc2cc(NS(=O)(=O)c3ccn(CC4CNC4)n3)ccc2c1C(=O)Nc1ccc(F)c(Cl)c1 |  | HepAD38 | >1000 µM |

A second listing of 2 rows from above:

compound | changes | cells | result
CCNC(=O)C(=O)N1CC[C@@H](NS(=O)(=O)c2cn(C)c(C(=O)Nc3ccc(F)c(F)c3)c2F)C(F)(F)C1 |  | HepAD38 cells | <0.1 µM
CC(C)(Oc1ccc(CNC(=O)c2c3n(c(=O)n2-c2ccc(OC4CC4)cc2)CCN(C(=O)c2ccc(Br)c(Cl)c2)C3)c(F)c1)C(N)=O |  | HepG2.117 | <0.1 µM

Rows are shuffled and stem from different studies. ECn is the concentration giving n% inhibition of infection, replication or growth. Two numbers with a dash give a range or band.